Measured values from several laboratories, pooled; numbers as filed in NIAID ChemDB.

Common to all: tests in culture; agent: Mycobacterium tuberculosis

An empty or dashed field is not shown. Conditions beyond the fields shown may differ between rows. Percent inhibition refers to the dose given; in toxicity tests it is the harm to the cells. MIC bound: limit read from a one-dose screen. MIC50, MIC90 and the like: level of inhibition, or share of isolates inhibited. a–b is a range or a potency band.

smiles,tested at,read-out,method,changes,strain,value
CN(C)CC=C(c1ccc(Br)cc1)c1ccc(-c2ccc(Br)cc2)cc1,,MIC,,,ALI 282,≤4 µg/mL
CC1=C(C)C(=O)O[C@H]([C@](C)(O)[C@]2(O)CC[C@@]3(O)[C@@H]4C[C@H](O)[C@]5(O)C(O)C=CC(=O)[C@]5(C)[C@H]4CC[C@]23C)C1,,MIC bound,BACTEC,,H37Rv,>12.5 µg/mL
CC(C)[C@H]1CO[C@]23CC[C@@H](NCc4cc(C(F)(F)F)nc5ccccc45)C[C@H]2CCC(=O)N13,,MIC,resazurin,,,<0.5 µM
C[n+]1ccc(Nc2ccc(NC(=O)c3ccc(Nc4cc[n+](C)c5ccc([N+](=O)[O-])cc45)cc3[N+](=O)[O-])cc2)cc1,,MIC bound,BACTEC,,H37Rv,≤12.5 µg/mL
Cc1ccc(/C(=C\CN(C)C)c2ccc(-c3ccc(Br)cc3)cc2)cc1,,MIC,,,H37Rv,79 µg/mL
CC(C)[C@H]1CO[C@]23CC[C@H](N(CCCCF)Cc4ccc(C(F)(F)F)cc4)C[C@H]2CCC(=O)N13,,MIC,resazurin,,,0.5–5 µM
NNC(=O)c1ccncc1,,MIC,,,92-0492 MDR (INH RIF-resistant),5 µg/mL
O=C(CSc1nnc(-c2ccccn2)s1)N/N=c1/scc(-c2cccc(Cl)c2)n1-c1ccccc1,,MIC,,,Clinical isolate 180,80 µg/mL
O=C(COc1cnccn1)N/N=c1\scc(-c2ccccc2)n1-c1ccc(Cl)cc1,,MIC,,,H37Rv,26 µg/mL
CC1=NN(c2ccccc2)C(=O)C1=Nc1c(C)[nH]n(-c2ccccc2)c1=O,,MIC,BACTEC,,H37Rv,≥12.8 µg/mL
CC1COc2c(N3CCN(C)CC3)c(F)cc3c(=O)c(C(=O)O)cn1c23,,MIC,,,90-0216 (drug-susceptible),0.5 µg/mL
CC1CCc2c(-n3ccnc3)c(F)cc3c(=O)c(C(=O)O)cn1c23,,MIC90,,,100 strains,>25 µg/mL
CO[C@H]1/C=C/O[C@@]2(C)Oc3c(C)c(O)c4c(O)c(c5c(c4c3C2=O)NC2(CCN(CC(C)C)CC2)N=5)=NC(=O)/C(C)=C\C=C\[C@H](C)[C@H](O)[C@@H](C)[C@@H](O)[C@@H](C)[C@H](OC(C)=O)[C@@H]1C,,MIC,,,Strain 64,0.03 µg/mL
CO[C@H]1/C=C/O[C@@]2(C)Oc3c(C)c(O)c4c(O)c(c(/C=N/N5CCN(C)CC5)c(O)c4c3C2=O)NC(=O)/C(C)=C\C=C\[C@H](C)[C@H](O)[C@@H](C)[C@@H](O)[C@@H](C)[C@H](OC(C)=O)[C@@H]1C,,MIC,,,2S,1 µg/mL
COc1c(N2CCNC(C)C2)c(F)cc2c(=O)c(C(=O)O)cn(C3CC3)c12,,MIC50,,,23 strains (rifampin- isoniazid-susceptible),0.1 µg/mL
CCN(CC)c1ccc(NC2=CC(=O)C(Nc3ccc(N(CC)CC)cc3)=CC2=O)cc1,6.25 µg/mL,inhibition,resazurin,,H37Rv,-9%
O=C(N/N=C/c1cccs1)c1ccc(Br)cc1,,MIC,,,H37Rv,>6.25 µg/mL
CCOc1ccc(-n2c(-c3ccc(Br)cc3)cs/c2=N\NC(=O)COc2cnccn2)cc1,,MIC,,,H37Rv,8.9 µg/mL
CN(C=O)C(=S)[S][Sb]([S]C(=S)N(C)C=O)[S]c1nc2ccc(N=Nc3ccc(NS(=O)(=O)c4ccc(NC(=O)C(N5CC5)(N5CC5)N5CC5)cc4)cc3)cc2s1,128 µg/mL,inhibition,BACTEC,,H37Rv,67%
NCC[C@H](O)C(=O)N[C@@H]1C[C@H](N)[C@@H](O[C@H]2O[C@H](CN)[C@@H](O)[C@H](O)[C@H]2O)[C@H](O)[C@H]1O[C@H]1O[C@H](CO)[C@@H](O)[C@H](N)[C@H]1O,,MIC,,,4R,2.5 µg/mL
O=C(N/N=C/c1ccncc1)c1ccc(F)cc1,6.25 µg/mL,inhibition,,,H37Rv,13%
CC(C)[C@H]1CO[C@]23CC[C@@H](OCc4ccc(C(F)(F)F)cc4)C[C@H]2CCC(=O)N13,,MIC,resazurin,,,<0.5 µg/mL
CCc1cc(C(N)=S)ccn1,,MIC,,,90-0145 (drug-susceptible),0.25 µg/mL
CCC1Cn2cc([N+](=O)[O-])nc2O1,,MIC,,,H37Rv-5A2 (PA-824-resistant),>100 µM
Cc1c(N2C[C@@H](N)C3(CC3)C2)c(F)c(N)c2c(=O)c(C(=O)O)cn(C3CC3)c12,,MIC50,,,23 strains (rifampin- isoniazid-susceptible),0.78 µg/mL
CC(C)N=c1cc2n(-c3ccc(Cl)cc3)c3ccccc3nc-2cc1Nc1ccc(Cl)cc1,,MIC,,,90-0233 (INH SM-RS),0.4 µg/mL
Cc1cc(=O)n(C)c2ccc(N)cc12,,MIC bound,BACTEC,,H37Rv,>12.5 µg/mL
Cc1cccc(-n2c(-c3ccccc3)cs/c2=N/NC(=O)CSc2nnc(-c3ccccn3)s2)c1,,MIC,,,Clinical isolate 190,>80 µg/mL
CN(C)c1ccc(O)c2c1C[C@H]1C[C@H]3[C@H](N(C)C)C(=O)C(C(N)=O)=C(O)[C@@]3(O)C(=O)C1=C2O,,MIC50,,,19 strains,>25 µg/mL
CC(NC(=O)OCc1ccccc1)C(=O)NC(CO)C(N)=O,,MIC bound,BACTEC,,H37Rv,>12.8 µg/mL
NCC[C@H](O)C(=O)N[C@@H]1C[C@H](N)[C@@H](O[C@H]2O[C@H](CN)[C@@H](O)[C@H](O)[C@H]2O)[C@H](O)[C@H]1O[C@H]1O[C@H](CO)[C@@H](O)[C@H](N)[C@H]1O,,MIC99,broth dilution,MDR,234/2005,0.5 µM
CC(C)[C@H]1CO[C@]23CC[C@H](N(Cc4ccc(C(F)(F)F)cc4)C(C)C4CN(C(=O)OC(C)(C)C)C4)C[C@H]2CCC(=O)N13,,MIC,resazurin,,,0.5–5 µM
CO[C@H]1/C=C/O[C@@]2(C)Oc3c(C)c(O)c4c(O)c(c(/C=N/N5CCN(C)CC5)c(O)c4c3C2=O)NC(=O)/C(C)=C\C=C\[C@H](C)[C@H](O)[C@@H](C)[C@@H](O)[C@@H](C)[C@H](OC(C)=O)[C@@H]1C,,MIC,,,13267,0.02 µg/mL
COC(=O)/C=C1\Nc2c(n(C)c(=O)n(C)c2=O)NC1=O,12.5 µg/mL,inhibition,BACTEC,,H37Rv,0%
CN(C)C/C=C(\c1ccc(O)cc1)c1ccc(-c2ccccc2)cc1,,MIC,,,H37Ra,49 µg/mL
O=C1NCCN1c1ncc([N+](=O)[O-])s1,,MIC bound,resazurin,,H37Rv,>6.25 µg/mL
NNC(=O)c1ccncc1,,MIC,,,Isolate B,0.031 µg/mL
CO[C@H]1/C=C/O[C@@]2(C)Oc3c(C)c(O)c4c(O)c(c(/C=N/N5CCN(C)CC5)c(O)c4c3C2=O)NC(=O)/C(C)=C\C=C\[C@H](C)[C@H](O)[C@@H](C)[C@@H](O)[C@@H](C)[C@H](OC(C)=O)[C@@H]1C,,MIC99,broth dilution,MDR,Praha 1,>8 µM
CN(C)C/C=C(/c1ccc(Br)cc1)c1ccc(-c2ccc(Br)cc2)cc1,,MIC,,,ALI 3082,17 µg/mL
O=[N+]([O-])c1cnc(N(CCO)CCO)s1,6.25 µg/mL,inhibition,resazurin,,H37Rv,-29%
O=C(CSc1nnc(-c2ccccn2)s1)N/N=c1/scc(-c2ccccc2Cl)n1-c1ccccc1,,MIC,,,Clinical isolate 190,>80 µg/mL
Cc1cc(C(=C2C=CC(=[NH+]c3ccc(S(=O)(=O)O)cc3)C=C2)c2ccc(Nc3ccc(S(=O)(=O)[O-])cc3)cc2)cc(S(=O)(=O)O)c1N,,MIC bound,BACTEC,,H37Rv,>12.5 µg/mL
CN[C@@H]1[C@@H](O)[C@@H](O[C@@H]2[C@@H](O)[C@H](O[C@H]3O[C@H](CN)CC[C@H]3N)[C@@H](N)C[C@H]2N)OC[C@]1(C)O,,MIC99,broth dilution,MDR,Praha 131,>8 µM
O=C(COc1cnccn1)N/N=c1\scc(-c2ccc(F)cc2)n1-c1ccc(Cl)cc1,,MIC,,,H37Rv,12.7 µg/mL
N[C@@H]1CN(c2c(F)cc3c(=O)c(C(=O)O)cn([C@@H]4C[C@@H]4F)c3c2Cl)CC12CC2,,MIC50,,,22 strains (rifampin- isoniazid-resistant),0.39 µg/mL
CC(C)N=c1cc2n(-c3ccc(Cl)cc3)c3ccccc3nc-2cc1Nc1ccc(Cl)cc1,,MIC99,broth dilution,MDR,8666/2010,0.125 µM
O=C(NNc1c(Cl)cc(Cl)cc1Cl)C(O)C(O)C(O)C(O)CO,,MIC bound,BACTEC,,H37Rv,>12.5 µg/mL
CC[C@H]1OC(=O)[C@H](C)[C@@H](O[C@H]2C[C@@](C)(OC)[C@@H](O)[C@H](C)O2)[C@H](C)[C@@H](O[C@@H]2O[C@H](C)C[C@H](N(C)C)[C@H]2O)[C@](C)(OC)C[C@@H](C)C(=O)[C@H](C)[C@@H](O)[C@]1(C)O,,MIC,,,90-0233 (INH SM-RS),2 µg/mL
O=C(CSc1nnc(-c2ccccn2)s1)N/N=c1/scc(-c2ccccc2)n1-c1ccccc1Br,,MIC,,,Clinical isolate 190,>80 µg/mL
O=[N+]([O-])c1cn2c(n1)OC[C@@H](OCc1ccc(OCc3ccccc3)cc1)C2,,MIC,,,H37Rv-T2 (PA-824-resistant),>100 µM
CC(C)[C@H]1CO[C@]23CC[C@@H](OC(c4ccc(C(F)(F)F)cc4)c4ccc(C(F)(F)F)cc4)C[C@H]2CCC(=O)N13,,MIC,resazurin,,,<0.5 µM
O=C(Nc1ccc(Cl)c(C(F)(F)F)c1)C(=O)C(C(=O)/C=C\c1ccccc1)C1OC(=O)c2ccccc21,12.5 µg/mL,inhibition,BACTEC,,H37Rv,0%
NNC(=O)c1ccncc1,,MIC99,broth dilution,MDR,Praha 1,16 µM
CC(C)[C@H]1CO[C@]23CC[C@H](N(Cc4ccc(C(F)(F)F)cc4)CC4CCCNC4)C[C@H]2CCC(=O)N13,,MIC,resazurin,,,<0.5 µM
COc1ccc(CCc2cc(OC)c3ccccc3n2)cc1OC,,MIC,,,MT7,77 µg/mL
O=C(COc1cnccn1)N/N=c1\scc(-c2ccc(Cl)cc2)n1-c1ccc(Cl)cc1Cl,,MIC,,,H37Rv,11.9 µg/mL
NS(=O)(=O)c1ccc(N2C(=O)C(=O)N(c3ccccc3)C2=S)cc1,12.5 µg/mL,inhibition,BACTEC,,H37Rv,0%
CC[C@@H](CO)NCCN[C@@H](CC)CO,,MIC99,broth dilution,MDR,9449/2007,16 µM
CN(C)C/C=C(\c1ccc(Cl)cc1)c1ccc(-c2ccc(Br)cc2)cc1,,MIC,,,ALI 282,≤5 µg/mL
CC(=O)OCC1OC(Nc2[nH]c(=O)n(C)c(=O)c2-c2csc(N)n2)C(OC(C)=O)C(OC(C)=O)C1OC(C)=O,,MIC bound,BACTEC,,H37Rv,>12.5 µg/mL
CN(C)CC=C(c1ccccc1)c1ccc(-c2ccc(Br)cc2)cc1,,MIC,,,ALI 536,≤5 µg/mL
O=C(N=Nc1c(O)[nH]c2ccccc12)C(=O)N=Nc1c(O)[nH]c2ccccc12,12.5 µg/mL,inhibition,BACTEC,,H37Rv,-15%
CN1c2ccccc2CCC1CCc1ccc2c(c1)OCO2,,MIC,,,MT6,>100 µg/mL
N[C@@H]1CONC1=O,,MIC,,,92-0492 MDR (INH RIF-resistant),50 µg/mL
O=C(CSc1nnc(-c2ccccn2)s1)N/N=c1/scc(-c2ccc(Cl)cc2)n1-c1ccccc1,,MIC,,,Clinical isolate 331,80 µg/mL
O=C(COc1cnccn1)N/N=c1\scc(-c2ccc(Cl)cc2)n1-c1ccc(Cl)cc1,,MIC,,,H37Rv,23 µg/mL
O=Cc1c2c(cc3ccccc13)Nc1ccccc1N2,,MIC bound,BACTEC,,H37Rv,>12.5 µg/mL
O=C(N/N=C/c1ccc[nH]1)c1ccc(F)cc1,,MIC,,,H37Rv,>6.25 µg/mL
Clc1ccc(C2(Cn3ccnc3)OCC(COc3ccc(-c4ccccc4)cc3)O2)c(Cl)c1,,MIC bound,resazurin,,H37Rv,>6.25 µg/mL
O=C(CSc1nnc(-c2ccccn2)s1)N/N=c1/scc(-c2ccccc2)n1-c1ccccc1,,MIC,,,H37Rv,>80 µg/mL
CC1=C[C@@H]2O[C@H]3C[C@@H](OC(=O)/C=C/C=C/C(OCCC4=CC(=O)OC4)C(C)O)[C@@](C)([C@]2(CO)CC1)[C@@]31CO1,12.5 µg/mL,inhibition,BACTEC,,H37Rv,7%
CC[C@H]1OC(=O)[C@H](C)[C@@H](O[C@H]2C[C@@](C)(OC)[C@@H](O)[C@H](C)O2)[C@H](C)[C@@H](O[C@@H]2O[C@H](C)C[C@H](N(C)C)[C@H]2O)[C@](C)(O)C[C@@H](C)C(=O)[C@H](C)[C@@H](O)[C@]1(C)O,,MIC50,,,23 strains,>25 µg/mL
COC(=O)c1cc2c3c(ccc2[nH]1)N(C(=O)c1cc2c4c(ccc2[nH]1)N(C(=O)c1cc2c5c(ccc2[nH]1)N(C(N)=O)CC5)CC4)CC3,,MIC,BACTEC,,H37Rv,≥12.5 µg/mL
O=C(N/N=C/c1cccs1)c1ccccc1,,MIC,,,H37Rv,>6.25 µg/mL

A second listing of 6 rows from above:

smiles | tested at | read-out | method | changes | strain | value
CCC1Cn2cc([N+](=O)[O-])nc2O1 |  | MIC |  |  | H37Rv-5A2 (PA-824-resistant) | >100 µM
O=C(N/N=C/c1ccc[nH]1)c1ccc(F)cc1 |  | MIC |  |  | H37Rv | >6.25 µg/mL
CO[C@H]1/C=C/O[C@@]2(C)Oc3c(C)c(O)c4c(O)c(c5c(c4c3C2=O)NC2(CCN(CC(C)C)CC2)N=5)=NC(=O)/C(C)=C\C=C\[C@H](C)[C@H](O)[C@@H](C)[C@@H](O)[C@@H](C)[C@H](OC(C)=O)[C@@H]1C |  | MIC |  |  | Strain 64 | 0.03 µg/mL
O=C(N/N=C/c1cccs1)c1ccc(Br)cc1 |  | MIC |  |  | H37Rv | >6.25 µg/mL
CC(NC(=O)OCc1ccccc1)C(=O)NC(CO)C(N)=O |  | MIC bound | BACTEC |  | H37Rv | >12.8 µg/mL
CC[C@H]1OC(=O)[C@H](C)[C@@H](O[C@H]2C[C@@](C)(OC)[C@@H](O)[C@H](C)O2)[C@H](C)[C@@H](O[C@@H]2O[C@H](C)C[C@H](N(C)C)[C@H]2O)[C@](C)(OC)C[C@@H](C)C(=O)[C@H](C)[C@@H](O)[C@]1(C)O |  | MIC |  |  | 90-0233 (INH SM-RS) | 2 µg/mL